Results of unrelated studies side by side (data: NIAID ChemDB).

Common to all: tests on isolated targets; agent: HIV-1; protein: Reverse transcriptase; measure: IC50

ICn: concentration for n% inhibition. Conditions beyond the fields shown may differ between rows. An empty or dashed field is not shown.

SMILES | strain or isolate | changes | read by | value
Cc1cn([C@H]2CC[C@@H](CC(F)(F)P(=O)(O)OP(=O)(O)NP(=O)(O)O)O2)c(=O)[nH]c1=O | - | - | fluorescence | ~10 µM
C/C(=C\CC[C@@H](C)C1CC[C@@]2(C)[C@@H]3CC[C@H]4C(C)(C)C(=O)CC[C@]4(C)[C@@]3(O)CC[C@]12C)C(=O)O | - | - | RT activity / radiometric | 143 µM
Cc1c(Cc2c(Cl)cccc2Cl)nc(SCc2ccc(O)cc2)[nH]c1=O | WT | - | nucleotide incorporation / radiometric | >400 µM
COc1cc2c(ccc3c4cc(OC)c(OC)cc4c[n+](C)c23)cc1O | - | - | RT activity / radiometric | 24.9 µM
CCOCn1c([Se]c2ccccc2)c(C)c(=O)[nH]c1=O | - | - | - | 69.8 µM
Cc1cn([C@H]2C[C@H](N=[N+]=[N-])[C@@H](CP(=O)(O)OP(=O)(O)C(Cl)(Cl)P(=O)(O)O)O2)c(=O)[nH]c1=O | - | - | fluorescence | >10 µM
CC(C)=CCN1Cc2cccc3[nH]c(=S)n(c23)C[C@@H]1C | - | - | nucleotide incorporation | 4.9 µM
Cc1c(Cc2c(Cl)cccc2Cl)nc(S(=O)(=O)Cc2ccc([N+](=O)[O-])cc2)[nH]c1=O | - | RT-K103N | nucleotide incorporation / radiometric | >400 µM
Cc1cccc2c1nc(CO)n2Cc1c(F)cccc1F | - | - | - | >10 µM
COc1cc(CSc2nc(Cc3c(F)cccc3F)c(C)c(=O)[nH]2)cc(OC)c1 | WT | - | nucleotide incorporation / radiometric | >400 µM
O=S1(c2ccccc2)=NC(=S)Nc2ccccc21 | - | - | nucleotide incorporation | 5.1 µM
Nc1c(S(=O)(=O)O)cc2c3c(cc(S(=O)(=O)O)cc13)C(=O)N(NC(=O)N/N=C/c1ccc(-c3ccc(/C=N/NC(=O)NN4C(=O)c5cc(S(=O)(=O)O)cc6c(N)c(S(=O)(=O)O)cc(c56)C4=O)cc3)cc1)C2=O | - | - | nucleotide incorporation / radiometric | 0.04 µM
COc1ccccc1N1CCN(CC(=O)C(C)N2C(=O)c3ccccc3C2=O)CC1 | - | - | - | 20 µM
NC(=O)c1[nH]c2ccc(Cl)cc2c1Sc1ccccc1 | - | - | RT activity | 0.01 µM
O=c1c(O)c(-c2ccc(O)c(O)c2)oc2cc(O)cc(O)c12 | IIIB | - | nucleotide incorporation | 635 µM
COc1ccc2c(c1)N(C(=O)OC(C)C)[C@@H](CSC)C(=S)N2 | - | RT-Y181C G190E | scintillation proximity / radiometric | >29 µM
O=C(/C=C/c1ccc(O)cc1)OC[C@H]1O[C@@H](Oc2c(-c3ccc(O)cc3)oc3cc(O)cc(O)c3c2=O)[C@H](O)[C@@H](O)[C@@H]1O | - | - | RT activity | >100 µg/mL
Cc1c(Cc2c(Cl)cccc2Cl)nc(SCc2ccc(C(C)C)cc2)[nH]c1=O | WT | - | nucleotide incorporation / radiometric | >400 µM
O=C(O[C@@H]1O[C@@H]2COC(=O)c3cc(O)c(O)c(O)c3-c3c(cc(O)c(O)c3O)C(=O)O[C@H]([C@H]1O)[C@@H]2O)c1cc(O)c(O)c(O)c1 | IIIB | - | nucleotide incorporation | 20 µM
O=c1c(O)c(-c2ccc(O)c(O)c2)oc2cc(O)cc(O)c12 | - | - | RT activity | 100 µg/mL
COc1c(O)c(I)c2c(c1OC)-c1c(c(I)c(O)c(OC)c1OC)C[C@H](C)[C@H](C)C2 | - | - | - | 0.8 µM
COC(=O)c1cc(O)c(O)c(O)c1 | IIIB | - | nucleotide incorporation | >1000 µM
Cc1cc(C)c2nc(-c3c(F)cccc3F)n(Cc3c(F)cccc3F)c2c1 | - | - | - | >10 µM
O=C(O)C(=NNc1ccc(Cl)cc1)C(=O)O | - | - | radiometric | 2.2 µM
CC(=O)O[C@@H](/C=C(\C)C(=O)O)C[C@@H](C)[C@H]1CC[C@@]2(C)C3CC[C@H]4C(C)(C)C(=O)CC[C@]4(C)C3=CC[C@]12C | - | - | RT activity / radiometric | 24.84 µM
CNc1nc(Nc2ccc(C)cc2)nc(Nc2ccc(C)cc2)n1 | - | - | nucleotide incorporation / radiometric | >200 µM
CCOCn1c([Se]c2ccccc2)cc(=O)[nH]c1=O | - | - | - | >100 µM
CCCCOc1ccc(CSc2nc(Cc3c(Cl)cccc3Cl)c(C)c(=O)[nH]2)cc1 | - | RT-181I | nucleotide incorporation / radiometric | >400 µM
C=C1CC[C@@H]2[C@H]([C@H]3[C@H]1CC[C@]3(C)[C@@H](CC(C)C)c1c(O)c(C=O)c(O)c(C=O)c1O)C2(C)C | - | - | RT activity | 8.4 µM
O=c1c(O[C@@H]2O[C@H](CO)[C@H](O)[C@H](O)[C@H]2O)c(-c2ccc(O)c(O)c2)oc2cc(O)cc(O)c12 | IIIB | - | nucleotide incorporation | 1000 µM
COC(=O)C1C(=O)N(O)C(=O)c2ccccc21 | - | - | RNase H | 0.061 µM
CN1c2ccccc2N2C(=O)CN(CCN3CCCCC3)C(=O)C2c2cccn21 | IIIB | - | RT activity | 100 µM
Nc1c(S(=O)(=O)[O-])cc2c3c(cc(S(=O)(=O)[O-])cc13)C(=O)N(NC(=O)N/N=C\c1cccc(C=O)c1)C2=O.[Na+].[Na+] | - | - | nucleotide incorporation / radiometric | 2.2 µM
O=S(Cc1[nH]c2ccccc2c1Sc1ccccc1)c1ccccc1 | - | - | RT activity | 0.06 µM
Cc1c(Cc2c(Cl)cccc2Cl)nc(SCc2ccc(F)cc2)[nH]c1=O | - | RT-K103N | nucleotide incorporation / radiometric | >400 µM
Cc1ccc2nc(-c3c(F)cccc3F)n(Cc3c(F)cccc3F)c2c1 | - | - | - | >10 µM
CC1(C)C2CCC(COCCNC(=S)Nc3ccc(Br)cn3)C1C2 | - | - | nucleotide incorporation / scintillation proximity / radiometric | >100 µM
Fc1cccc(F)c1Cn1c(-c2c(F)cccc2F)nc2cc(Br)ccc21 | - | - | - | >10 µM
Cc1c(Cc2c(F)cccc2F)nc(SCc2ccc([N+](=O)[O-])cc2)[nH]c1=O | - | RT-181I | nucleotide incorporation / radiometric | >400 µM
Cc1cn([C@H]2C[C@H](N=[N+]=[N-])[C@@H](CP(=O)(O)OP(=O)(O)OP(=O)(O)O)O2)c(=O)[nH]c1=O | - | - | fluorescence | >10 µM

A second listing of 4 rows from above:

SMILES | strain or isolate | changes | read by | value
COC(=O)C1C(=O)N(O)C(=O)c2ccccc21 | - | - | RNase H | 0.061 µM
CCOCn1c([Se]c2ccccc2)cc(=O)[nH]c1=O | - | - | - | >100 µM
O=c1c(O)c(-c2ccc(O)c(O)c2)oc2cc(O)cc(O)c12 | IIIB | - | nucleotide incorporation | 635 µM
Cc1cc(C)c2nc(-c3c(F)cccc3F)n(Cc3c(F)cccc3F)c2c1 | - | - | - | >10 µM